One substance from article PMC5686395, “Eukaryotic-type serine/threonine kinase mediated phosphorylation at Thr^169 perturbs mycobacterial guanylate kinase activity” (Bioscience Reports, 2017) can be followed below.

The data set relates to Nc1nc2c(ncn2[C@@H]2O[C@H](COP(=O)(O)O)[C@@H](O)[C@H]2O)c(=O)[nH]1. Briefly: purified protein. The following applies: pH 7.5; 30.0 °C.

A word on the Km: it is the substrate concentration at which the rate is half of its maximum.

On to (Mycobacterium tuberculosis H37Rv), for which the Michaelis constant (Km) was found to be 138 ± 23 µM.
